Results of unrelated studies side by side (data: NIAID ChemDB).

All rows: whole-cell or culture tests; organism: HIV-1

ECn is the concentration giving n% inhibition of infection, replication or growth.

structure	method	changes	cell line	measure	strain	setting	result
Clc1ccc(C2ON=C(c3ccccc3)N2C23CC4CC(CC(C4)C2)C3)cc1	cytopathic effect / XTT		CEM	EC50			>6.3 µM
CCCc1c(Cc2ccc3ccccc3c2)n(COC)c(=O)[nH]c1=O			CEM	EC50	LAV		>59.1 µM
NC(=O)NO	RT activity		H9	EC50			<200 µM
N=C1Sc2ccccc2C2=NCCCN12	ELISA		PBMC	EC50	92HT599		0.55 µM
CCCCCCCCCCCCCCCC(=O)Nc1ccn([C@H]2CC[C@@H](COP(=O)(O)OCC(COP(=O)(O)OC[C@H]3O[C@@H](n4cc(C)c(=O)[nH]c4=O)C[C@@H]3N=[N+]=[N-])OC(=O)CCCCCCCCCCCCCCC)O2)c(=O)n1	XTT		CEM	EC50			0.0179 µM
CCCc1c(Cc2cccc3ccccc23)n(COC)c(=O)[nH]c1=O			CEM	EC50	LAV		>59.1 µM
CC(C)C1=C2[C@H]3CC[C@@H]4[C@@]5(C)CC[C@H](OC(=O)[C@H]6C[C@@H](C(=O)O)C6(C)C)C(C)(C)[C@@H]5CC[C@@]4(C)[C@]3(C)CC[C@@]2([C@@H](O)CNC(=O)c2ccc(Cl)cc2)CC1=O	p24 / ELISA		MT-2	EC50	92HT599		<1 µM
Cc1c(Cc2cccc3ccccc23)n(COCc2ccccc2)c(=O)[nH]c1=O			MT-4	EC50	LAV		0.041 µM
O=[N+]([O-])c1ccc(CS(=O)(=O)c2cccc[n+]2[O-])cc1	syncytia		CEM	EC50	IIIB		>4 µg/mL
CCN1c2ncc(CCc3ccncc3)cc2C(=O)N(C)c2ccc(Cl)nc21	p24		C8166	EC50	IIIB		0.009 µM
CC(C)(C)OC(=O)N1[C@H](CO)CC(F)(F)[C@H]1n1cnc2c(Cl)ncnc21	RT activity		PBMC	EC90	LAI		>100 µM
O=C(NCc1ccc(F)cc1F)c1c(NCCCCc2ccccc2)c2cccnc2n(O)c1=O	luciferase	N155H	HOS	EC50		pseudotyped	0.166 µM
CN(C)S(=O)(=O)N1CCN(C(=O)C(=O)c2c[nH]c3c(-n4cncn4)ncc(F)c23)CC1	luciferase		HeLa	EC50	Recombinant		<1 µM
CN(C)C1=C(C#N)/C(=C2/C(C#N)=C(N(C)C)N(c3ccc([N+](=O)[O-])cc3)c3c2n(C)c2ccccc32)c2c(c3ccccc3n2C)N1c1ccc([N+](=O)[O-])cc1	cytopathic effect / XTT		CEM + CEM-SS	EC50	IIIB		0.824–0.836 µM
Cc1cccc(C2ON=C(c3ccccc3)N2C23CC4CC(CC(C4)C2)C3)c1	cytopathic effect / XTT		CEM	EC50			>2 µM
Cc1nc(CCCCCCC(=O)c2ccccc2)n2nc(NCCCCCCNCc3cn([C@H]4C=C[C@@H](CO)O4)c(=O)[nH]c3=O)ccc12	RT activity		MT-4	EC50	IIIB		0.09 µM
C=C(C)C1CC[C@]2(C(=O)O)CC[C@]3(C)C(CCC4[C@@]5(C)C[C@@H](C(=O)[O-])[C@H](O)C(C)(C)C5CC[C@]43C)C12	syncytia		1A2	EC50	MC99 (Tat/Rev defective)		5.6 µg/mL
Cc1nc(CCCCCCC(=O)c2ccccc2)n2nc(NCCCCCCCCCCCCNCc3cn([C@H]4C=C[C@@H](CO)O4)c(=O)[nH]c3=O)ccc12	RT activity		CEM + CEM-SS	EC50	Nevirapine-resistant		0.1 µM
CCc1c(Cc2cccc3ccccc23)n(COCCO)c(=O)[nH]c1=O			MT-4	EC50	LAV		0.649 µM
CCc1ccccc1N1CCN(c2c(F)cc3c(=O)c(C(=O)O)cn(-c4ccc(CN5CCOCC5)cc4)c3c2Cl)CC1	syncytia		PBL	EC50			0.3 µM
O=C1NC(SC(SC2=NNC3(C(=O)N2)c2ccccc2-c2ccccc23)=C(SC2=NNC3(C(=O)N2)c2ccccc2-c2ccccc23)SC2=NNC3(C(=O)N2)c2ccccc2-c2ccccc23)=NNC12c1ccccc1-c1ccccc12	cytopathic effect / XTT		CEM	EC50			>63 µM
CC(C)C1=C2[C@H]3CC[C@@H]4[C@@]5(C)CC[C@H](OC(=O)[C@H]6C[C@@H](C(=O)O)C6(C)C)C(C)(C)[C@@H]5CC[C@@]4(C)[C@]3(C)CC[C@@]2(CCNC(C)(C)c2ccccc2)CC1=O	p24 / ELISA		MT-2	EC50	92HT599		<1 µM
Cc1cc(C)cc(S(=O)(=O)c2c(C(=O)NS(=O)(=O)c3ccc(F)cc3)[nH]c3ccc(Cl)cc23)c1	MTT	K103N	MT-4	EC50			14.98 µM
O=C(O)CN(CCOCCOCCN1CC2c3cc4c5c6c3-c3c(cc7c8c3C63CN(CCOCCOCCN(CC(=O)O)CC(=O)O)CC36c3c-5c(cc5ccc9cc(c-8c6c9c35)C7)C4)C2C1)CC(=O)O	cytopathic effect		CEM	EC50	IIIB		>4 µM
CCCS(=O)(=O)NC(=O)c1[nH]c2ccc(Cl)cc2c1S(=O)(=O)c1cc(C)cc(C)c1	MTT	K103N	MT-4	EC50			2.48 µM
Cc1ccnc(C)c1C(=O)N1CCC(C)(N2CCN([C@@H](C)c3ccc(C(F)(F)F)cc3)[C@@H](C)C2)CC1			TZM-bl	EC50	JR-FL		0.39 µM
Cc1ccc(CS(=O)c2cccc[n+]2[O-])cc1	syncytia		CEM	EC50	IIIB		>4 µg/mL
Cc1cc(C)cc(S(=O)(=O)c2c(C(=O)NS(=O)(=O)C(F)(F)F)[nH]c3ccc(Cl)cc23)c1	MTT	F227L + V106A	MT-4	EC50			38.65 µM
O=C(O)c1cn(-c2ccc(CN3CCOCC3)cc2)c2nc(N3CCN(c4ccc(F)cc4)CC3)c(F)cc2c1=O	syncytia		PBL	EC50			0.3 µM
Cc1cccc(C(C#N)S(=O)c2cccc[n+]2[O-])c1	syncytia		CEM	EC50	IIIB		>0.16 µg/mL
COc1cc2c(cc1Cc1cccc(Cl)c1F)c(=O)c(C(=O)O)cn2[C@H](CO)C(C)C			MT-4	EC50	IIIB		0.0033 µM
CCOC(=O)C12C(c3ccccc3)C3(C(=O)OCC)C4(C)OC1(C)C1(C(=O)OCC)C(c5ccccc5)C4(C(=O)OCC)C3(C)OC21C	p24 / ELISA		MT-4	EC50	IIIB		0.03051 µM
Cc1ccc(C)c(C(CCCCCCBr)S(=O)(=O)c2cccc[n+]2[O-])c1	syncytia		CEM	EC50	IIIB		>0.8 µg/mL
CC(C)C1=C2[C@H]3CC[C@@H]4[C@@]5(C)CC[C@H](OC(=O)[C@H]6C[C@@H](C(=O)O)C6(C)C)C(C)(C)[C@@H]5CC[C@@]4(C)[C@]3(C)CC[C@@]2(CCNC(=O)c2ccc(Cl)cc2OCCN2CCCC2)CC1=O	p24 / ELISA		MT-2	EC50	92HT599		<1 µM
CC[C@H](/C=C/[C@@H](C)[C@H]1CC[C@H]2[C@@H]3CC=C4C[C@@H](O[C@@H]5O[C@H](CO)[C@@H](O)[C@H](O)[C@H]5O)CC[C@]4(C)[C@H]3CC[C@]12C)C(C)C	syncytia		1A2	EC50	MC99 (Tat/Rev defective)		73.6 µg/mL
COCn1c(Cc2cccc3ccccc23)c(C)c(=O)[nH]c1=O			MT-4	EC50	LAV		1.451 µM
N#C/C(=C/c1ccc(Cl)cc1Cl)S(=O)(=O)c1cccc[n+]1[O-]	syncytia		CEM	EC50	IIIB		>4 µg/mL
O=c1[nH]c(=O)n([C@H]2C=C[C@@H](CO)O2)cc1CO	RT activity		CEM + CEM TK-	EC50	LAI		25 µM
CCOC(=O)C12C(c3ccc(Cl)c(Cl)c3)C3(C(=O)OCC)C4(C)OC1(C)C1(C(=O)OCC)C(c5ccc(Cl)c(Cl)c5)C4(C(=O)OCC)C3(C)OC21C	p24 / ELISA		MT-4	EC50	IIIB		0.106 µM
CC1CN(c2cc3c(cc2F)c(=O)c(C(=O)O)cn3-c2ccc(CN(C)C)cc2)CCN1c1ccccc1	syncytia		PBL	EC50			0.002 µM
CC(C)C1=C2[C@H]3CC[C@@H]4[C@@]5(C)CC[C@H](OC(=O)[C@H]6C[C@@H](C(=O)O)C6(C)C)C(C)(C)[C@@H]5CC[C@@]4(C)[C@]3(C)CC[C@@]2(CCNCC(C)(C)NC(=O)c2ccc(N3CCOCC3)cc2)CC1=O	p24 / ELISA		MT-2	EC50	92HT599		<1 µM
Cc1cc(C)cc(S(=O)(=O)c2c(C(=O)NS(=O)(=O)c3ccccc3)[nH]c3ccc(Cl)cc23)c1	MTT		MT-4	EC50	RES056		>131 µM
CCCC(Sc1cccc[n+]1[O-])c1cc(C)ccc1C	syncytia		CEM	EC50	IIIB		>4 µg/mL
CN(C)Cc1ccc(-n2cc(C(=O)O)c(=O)c3ccc(N4CCN(c5ccccn5)CC4)cc32)cc1	syncytia		PBL	EC50			0.3 µM
CCOC(=O)C12C(c3ccc(C)cc3)C3(C(=O)OCC)C4(C)OC1(C)C1(C(=O)OCC)C(c5ccc(C)cc5)C4(C(=O)OCC)C3(C)OC21C	p24 / ELISA		MT-4	EC50	IIIB		0.02854 µM
CC1(C)C(c2ccc(C(=O)O)cc2)=CC[C@]2(C)CN(C(=O)C3(Cc4ccccc4)CCNCC3)CC=C12	luciferase / luminescence	Renilla luciferase reporter Gag P373S	MT-2	EC50	NL4-3		0.61 µM
C=CCNC(=O)NC1=CSC2=NC(=O)C3(NN12)c1ccccc1-c1ccccc13	cytopathic effect / XTT		CEM	EC50			>20 µM
COc1ccc(CS(=O)c2cccc[n+]2[O-])cc1	syncytia		CEM	EC50	IIIB		>0.8 µg/mL
COc1ccnc2c1c(C(=O)C(=O)N1CCN(S(=O)(=O)N(C)C)C[C@H]1C)cn2S(=O)(=O)N(C)C	luciferase		HeLa	EC50	Recombinant		>5 µM
CC(C)c1c(Cc2cccc3ccccc23)n(COCCO)c(=O)[nH]c1=O			MT-4	EC50	LAV		0.076 µM
Cc1nc(CCCCCCC(=O)c2ccccc2)n2nc(NCCCCCCCCN)ccc12	RT activity		MT-4	EC50	IIIB		>10 µM
Cc1ccc(C(=O)NC(C)(C)CNC[C@H](O)[C@@]23CC[C@]4(C)[C@H](CC[C@@H]5[C@@]6(C)CC[C@H](OC(=O)[C@H]7C[C@@H](C(=O)O)C7(C)C)C(C)(C)[C@@H]6CC[C@]54C)C2=C(C(C)C)C(=O)C3)nc1	p24 / ELISA		MT-2	EC50	92HT599		<1 µM
Cc1ccc(C)c(C(Cc2ccccc2)Sc2cccc[n+]2[O-])c1	syncytia		CEM	EC50	IIIB		>0.8 µg/mL
CC(C)(C)NC(=O)[C@@H]1C[C@@H]2CCCC[C@@H]2CN1C[C@@H](O)[C@H](CSc1ccccc1)NC(=O)[C@H](CC(N)=O)NC(=O)c1ccc2ccccc2n1			CEM + CEM-SS	EC50			<0.0013 µM
CCOC(=O)C12C(c3ccc(C(F)(F)F)cc3)C3(C(=O)OCC)C4(C)OC1(C)C1(C(=O)OCC)C(c5ccc(C(F)(F)F)cc5)C4(C(=O)OCC)C3(C)OC21C	p24 / ELISA		MT-4	EC50	IIIB		0.07552 µM
COc1cc2c(c(OC)c1OC)-c1c(cc(OC(C)=O)c(OC)c1OC)C[C@H](C)[C@H](C)[C@H]2OC	MTT		C8166	EC50			1.82 µg/mL
CN(C)c1ccc(C2ON=C(c3ccccc3)N2C23CC4CC(CC(C4)C2)C3)cc1	cytopathic effect / XTT		CEM	EC50			>0.63 µM
CCCc1c(Cc2cccc3ccccc23)n(COCC)c(=O)[nH]c1=O			MT-4	EC50	LAV		0.795 µM
c1ccc(C2=NOC(c3ccccc3)N2C23CC4CC(CC(C4)C2)C3)cc1	cytopathic effect / XTT		CEM	EC50			<63 µM
Cc1c(Cl)c(Cl)c(CS(=O)(=O)c2cccc[n+]2[O-])c(Cl)c1Cl	syncytia		CEM	EC50	IIIB		≥0.8 µg/mL
CCOC(=O)C12C(c3ccc(N)cc3)C3(C(=O)OCC)C4(C)OC1(C)C1(C(=O)OCC)C(c5ccc(N)cc5)C4(C(=O)OCC)C3(C)OC21C	p24 / ELISA		MT-4	EC50	IIIB		0.02677 µM
O=C(O)C(SC1=NNC2(C(=O)N1)c1ccccc1-c1ccccc12)SC1=NNC2(C(=O)N1)c1ccccc1-c1ccccc12	cytopathic effect / XTT		CEM	EC50			>20 µM
CC1(C)C(c2ccc(C(=O)O)cc2)=CC[C@]2(C)CN(c3ncc(Br)s3)CC=C12	luciferase / luminescence	Renilla luciferase reporter Gag P373S	MT-2	EC50	NL4-3		0.27 µM
Cc1ccc(C(C)S(=O)c2cccc[n+]2[O-])c(Cl)c1	syncytia		CEM	EC50	IIIB		>0.16 µg/mL
COC(=O)c1ccc(F)c2c(C(=O)C(=O)N3CCN(S(=O)(=O)N4CCCCC4)CC3)c[nH]c12	luciferase		HeLa	EC50	Recombinant		1–5 µM
O=C1N=C2SC=C(NC(=S)Nc3ccccc3)N2NC12c1ccccc1-c1ccccc12	cytopathic effect / XTT		CEM	EC50			>63 µM
CC(C)C1=C2[C@H]3CC[C@@H]4[C@@]5(C)CC[C@H](OC(=O)[C@H]6C[C@@H](C(=O)O)C6(C)C)C(C)(C)[C@@H]5CC[C@@]4(C)[C@]3(C)CC[C@@]2([C@@H](O)CNC(=O)C2CCCCC2)CC1=O	p24 / ELISA		MT-2	EC50	92HT599		<1 µM
Cc1nc(CCCCCCC(=O)c2ccccc2)n2nc(NCCCCCCN)ccc12	RT activity		CEM + CEM-SS	EC50	LAI		8.75 µM
Cc1ccccc1C(C(N)=O)S(=O)c1cccc[n+]1[O-]	syncytia		CEM	EC50	IIIB		>100 µg/mL
O=C(OC(Cc1ccc(O)c(O)c1)C(=O)O)c1cc(-c2ccc(O)c(O)c2)c2cc(O)c(O)cc2c1	p24		HuT-78	EC50	NL4-3		>50 µM
Fc1cccc(C2ON=C(c3ccccc3)N2C23CC4CC(CC(C4)C2)C3)c1	cytopathic effect / XTT		CEM	EC50			>6.3 µM
COc1ccc(CS(=O)c2cccc[n+]2[O-])cc1OC	syncytia		CEM	EC50	IIIB		>0.8 µg/mL
Nc1ncnc2c1ncn2[C@H]1C=C[C@@H](OCP(=O)(O)O)O1	cytopathic effect	RT-M184V	MT-2	EC50			1.3 µM

Blank or dashed fields: not listed here. Two numbers with a dash give a range or band. Lines come from different laboratories, so protocols vary.